The target in this data set is Hfq (Hfq6XHis) (Legionella pneumophila strain Paris) (UniProt Q5X982). Nature of the data set: EMSA. As to conditions: recombinant protein; residues 1-85; protein details: 6xHis; label: 33P-UTP internal label; probe letters rebuilt from the primers and the genome.

Sequences of proteins named here, by UniProt entry; tags and fusion partners are left off. A change or cut given only in a name is not applied to a line headed by its entry.
UniProt Q5X982: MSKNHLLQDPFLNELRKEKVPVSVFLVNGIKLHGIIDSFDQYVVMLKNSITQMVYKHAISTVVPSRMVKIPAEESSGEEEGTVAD

The exact form of at least one protein or probe is not confirmed.

As to “GGCGCAAUUCAUUUAGGAAAGGGUCUUGUAGUAAAUGAUUUUUAGACAUUGCCUACUCCUUGUUGUUAUUGUAAUUUUUAAAGGCAAAAACGGGUAUCUAACU [Anti-hfq sRNA]”, the binding result is on record as “binds”. In the case of “GGGAUAGGGUGUCGAAUAAAUAGUUAGAUACCCGUUUUUGCCUUUAAAAAUUACAAUAACAACAAGGAGUAGGCAAUGUCUAAAAAUCAUUUACUACAAGACCCUUUCCUAAAUGAAUUGCGCAAGGAAAAGGUACCUGUUUCAGUGUUCCUGGUCAAUGGUAUUAAAUUGCAUGGGAUAAUCGAUUCUUUUGAUCAAUAUGUGGUGAUGCUUAAAAACUCCAUAACCCAAAUGGUUUAUAAACACGCCAUUUCAACAGUUGUUCCUUCUCGAAUGGUCAAAAUUCCUGCUGAGGAAAGCUCUGGUGAGGAAGAAGGAACUGUGGCAGACUAAUCAA [hfq mRNA (full transcript)]” it was “binds”.

Source of the values: publication PMC5225317.
